Assay results: ChEMBL document CHEMBL4261622, “Monosaccharide inhibitors targeting carbohydrate esterase family 4 de-N-acetylases” (Bioorg Med Chem, 2018)

Protein sequences, listed by entry. Tags and fused reporters are not part of them.
UniProt Q8DP63, whole entry, looked up: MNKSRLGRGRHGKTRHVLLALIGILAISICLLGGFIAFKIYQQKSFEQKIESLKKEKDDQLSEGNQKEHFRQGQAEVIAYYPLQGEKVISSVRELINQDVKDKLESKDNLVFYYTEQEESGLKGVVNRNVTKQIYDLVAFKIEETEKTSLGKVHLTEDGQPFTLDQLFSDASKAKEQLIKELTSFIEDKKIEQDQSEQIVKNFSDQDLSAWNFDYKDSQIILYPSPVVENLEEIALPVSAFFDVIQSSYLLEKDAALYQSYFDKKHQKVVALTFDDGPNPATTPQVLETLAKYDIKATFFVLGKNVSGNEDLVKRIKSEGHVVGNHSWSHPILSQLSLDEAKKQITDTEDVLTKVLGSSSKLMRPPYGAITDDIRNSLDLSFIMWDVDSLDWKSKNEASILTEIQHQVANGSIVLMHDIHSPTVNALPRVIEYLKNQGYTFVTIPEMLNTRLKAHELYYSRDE

Target: Peptidoglycan-N-acetylglucosamine deacetylase (Streptococcus pneumoniae (strain ATCC BAA-255 / R6), UniProt Q8DP63)

Question: With CP(=O)(O)N[C@H]1[C@H](OCc2ccccc2)O[C@H](CO)[C@@H](OCc2ccccc2)[C@@H]1O as the compound, how does the Ki read?
Answer: 80 µM
